A mixed list of measured activities; the numbers were collected in NIAID ChemDB.

Shared fields: tests in culture; agent: Hepatitis C virus; read-out: EC50

Two numbers with a dash give a range or band. Blank or dashed fields: not listed here. ECn is the concentration giving n% inhibition of infection, replication or growth. Conditions beyond the fields shown may differ between rows.

| compound | strain or isolate | read by | setting | value |
|---|---|---|---|---|
| O=C(Nc1ccc(CN2CCS(=O)(=O)CC2)cc1)c1ccc(-c2cc(NC(=O)C3CC3)ccc2Cl)cc1 | 1b | replicon |  | 0.18 µM |
| COCC(C)N(C(=O)C1CCC(C)CC1)c1cc(-c2ccccc2)sc1C(=O)O | 1a | replicon / ELISA |  | 0.1–0.49 µM |
| COC(=O)c1ccc2c(C3CCCCC3)c3n(c2c1)CC(C(=O)N1C2CCC1CN(C)C2)=Cc1cc(OC)ccc1-3 |  | replicon |  | >0.5 µM |
| CC(C)(C)OC(=O)N1[C@H](CO)CC(F)(F)[C@H]1n1cnc2ncnc(N)c21 |  | replicon |  | >10 µM |
| CCC[C@H](NC(=O)[C@@H]1CC2CCCCC2N1C(=O)[C@@H](NC(=O)[C@@H](NC(=O)c1cnccn1)C1CCCCC1)C(C)(C)C)C(=O)C(=O)NC1CC1 |  |  |  | 1.09 µM |
| CCCS(=O)(=O)N1CCN(Cc2ccc(NC(=O)c3ccc(-c4cc(C(=O)Nc5ccc(N6CCOCC6)cc5)ccc4C)cc3)cc2)CC1 | 1b | replicon |  | 0.19 µM |
| COc1ccc2c(O[C@@H]3C[C@H]4C(=O)N[C@]5(C(=O)NS(=O)(=O)C6CC6)C[C@H]5/C=C\CCCCC[C@H](CC(=O)N5CCCCC5)C(=O)N4C3)cc(-c3ccccc3)nc2c1 |  | replicon |  | <100 µM |
| CCOc1nc(NCc2ccc(F)cc2F)nc2ccc(-c3ccc(F)cc3)nc12 |  | replicon |  | <0.1 µM |
| Cc1ccc(C(=O)NCc2ccccc2)cc1-c1ccc(C(=O)Nc2ccc(CN3CCS(=O)(=O)CC3)cc2)cc1 | 1b | replicon |  | 0.8 µM |
| COc1cccc2c1C=C(C(=O)N1C3CCC1CN(C)C3)Cn1c-2c(C2CCCCC2)c2ccc(C(=O)NS(=O)(=O)N(C)C)cc21 |  | replicon |  | 0.001–0.5 µM |
| COC(=O)NC[C@H](C(=O)N1CCCC1c1ncc(-c2ccc(-c3ccc(-c4cnc(C5CCCN5C(=O)[C@@H](NC(=O)OC)C(C)C)[nH]4)cc3)cc2)[nH]1)C(C)C | HCV4a-21 |  |  | 0.000007 µM |
| CC(C)(C)OC(=O)N1[C@H](CO)CC(F)(F)[C@H]1n1cc(F)c(=O)[nH]c1=O |  | replicon |  | >10 µM |
| N#CCCCC(c1ccccc1)c1nc(-c2cn(Cc3ccc(C(F)(F)F)cc3F)c3ccccc3c2=O)no1 | 1b | replicon |  | <0.5 µM |
| CCOCCN(C(=O)C1CCC(C)CC1)c1cc(-c2ccc(-c3cc4ncccc4o3)cc2)sc1C(=O)O | 1a | replicon / ELISA |  | 0.005–0.0099 µM |
| C=CC1CC1(NC(=O)[C@@H]1C[C@@H](Oc2cc(-c3ccccc3)nc3cc(OC)ccc23)CN1C(=O)[C@@H](CC(=O)N1CCCc2ccccc21)C(C)(C)C)C(=O)OCC |  | replicon |  | >10 µM |
| CCOCCN(C(=O)C1CCC(C)CC1)c1cc(-c2ccc(-c3cc4ncccn4n3)cc2)sc1C(=O)O | 1a | replicon / ELISA |  | 0.005–0.0099 µM |
| CCC(C)S(=O)(=O)NC(=O)c1ccc2c(C3CCCCC3)c3n(c2c1)CC(C(=O)N1C2CCC1CN(C)C2)=Cc1cc(OC)ccc1-3 |  | replicon |  | 0.001–0.5 µM |
| Cc1cc(-c2nnc(N[C@@H]3CCC[C@H](O)C3)o2)nc2c(C(C)(C)C)cc(OCC(F)(F)F)cc12 | 1b H94N | luciferase |  | 0.0055 µM |
| CN1CCN(c2cc3c(cc2F)c(=O)c(-c2noc(C(CCCC#N)c4ccccc4)n2)cn3Cc2ccc(C(F)(F)F)cc2F)CC1 | 1b | replicon |  | <2 µM |
| O=C(O)c1ccc2c(C3CCCCC3)c3n(c2c1)CCCc1ocnc1-3 | 1b |  |  | 10 µM |
| CCOc1nc(NCc2cccc(Cl)c2F)nc2ccc(-c3ccc(F)cc3)nc12 |  | replicon |  | <0.1 µM |
| CC1CCC(C(=O)N(c2cc(-c3ccc(-c4cc5ncccn5n4)cc3)sc2C(=O)O)C2CCOC2)CC1 | 1b | replicon / ELISA |  | 0.005–0.0099 µM |
| COc1ccc2c(O[C@@H]3C[C@H]4C(=O)N[C@@]5(C(=O)NS(=O)(=O)C6CC6)C[C@@H]5/C=C\CCCCC[C@H](CC(=O)N5CCCCC5)C(=O)N4C3)cc(-c3ccccc3)nc2c1 |  | replicon |  | <100 µM |
| Cc1ccc(NC(=O)NC2CCCCC2)cc1-c1ccc(C(=O)Nc2ccc(CN3CCS(=O)(=O)CC3)cc2)cc1 | 1b | replicon |  | 0.09 µM |
| CCOC(=O)C12CC1/C=C\CCCCC[C@@H](CC(=O)N1CCCCC1)C(=O)N1C[C@H](Oc3cc(-c4ccccc4)nc4cc(OC)ccc34)C[C@H]1C(=O)N2 |  | replicon |  | >10 µM |
| Cc1nc2c(s1)CCCn1c-2c(C2CCCCC2)c2ccc(C(=O)O)cc21 | 1b |  |  | 10 µM |
| CCOc1nc(NCc2ccc(F)cc2)nc2ccc(-c3ccc4c(c3)CC(=O)N4)nc12 |  | replicon |  | <0.1 µM |
| O=C(Nc1ccc(CN2CCS(=O)(=O)CC2)cc1)c1ccc(-c2cc(NC(=O)C3CC3)ccc2F)cc1 | 1b | replicon |  | >25 µM |
| CC(C)(C)OC(=O)N1CCC(NS(=O)(=O)c2cc(-c3ccc4nc(NCc5ccc(S(N)(=O)=O)cc5)nc(NCC(F)(F)F)c4n3)ccc2F)CC1 |  | replicon |  | <0.1 µM |
| O=c1c(-c2noc(Cc3ccccc3)n2)cn(Cc2ccc(Cl)cc2)c2ccc(O)cc12 | 1b | replicon |  | <10 µM |
| CC(C)(C)OC(=O)N1[C@H](CO)CC(F)(F)[C@H]1n1cnc2c(Cl)ncnc21 |  | replicon |  | >10 µM |
| COc1ccc2c(c1)C=C(C(=O)N1CC3CCC(C1)N3C(=O)OC(C)(C)C)Cn1c-2c(C2CCCCC2)c2ccc(C(=O)NS(=O)(=O)N(C)C)cc21 |  | replicon |  | 0.001–0.5 µM |
| CCOCCN(C(=O)C1CCC(C)CC1)c1cc(-c2ccc(-c3cn4ccsc4n3)cc2)sc1C(=O)O | 1a | replicon / ELISA |  | 0.01–0.049 µM |
| Cc1ccc(NC(=O)c2ccc(N3CCOCC3)cc2)cc1-c1ccc(C(=O)Nc2ccc(CN3CCS(=O)(=O)CC3)cc2)cc1 | 1b | replicon |  | 0.22 µM |
| CC(C)(C)OC(=O)N1[C@H](CO)CC(F)(F)[C@@H]1n1cnc2ncnc(N)c21 |  | replicon |  | >10 µM |
| Cc1cn([C@@H]2CNC[C@@H]2OCP(=O)(O)O)c(=O)[nH]c1=O |  | replicon |  | >50 µM |
| CS(=O)(=O)Nc1ccc2c(c1)S(=O)(=O)N=C(C1=C(O)[C@@H]3C4CC[C@@H](C4)[C@@H]3N(Cc3ccc(C(F)(F)F)cc3)C1=O)N2 | 1b | replicon |  | 3.3 µM |
| CN(CCS(C)(=O)=O)c1nc(NCc2ccc(S(N)(=O)=O)cc2)nc2ccc(-c3ccc(F)cc3)nc12 |  | replicon |  | <0.1 µM |
| CN1CCN(c2cc3c(cc2F)c(=O)c(-c2noc(CN4CCCC4)n2)cn3Cc2ccc(Cl)cc2)CC1 | 1b | replicon |  | >10 µM |
| CC1CCC(C(=O)N(CC2CCOCC2)c2cc(-c3ccc(-c4nc5ncccc5o4)cc3)sc2C(=O)O)CC1 | 1a | replicon / ELISA |  | 0.01–0.049 µM |
| Cc1ccc(NC(=O)C2CC2)cc1-c1ccc(C(=O)Nc2ccc(CN3CCS(=O)(=O)CC3)cc2)cc1 | 1b | replicon |  | 0.17 µM |
| CN1CCN(c2cc3c(cc2F)c(=O)c(-c2noc(C(CCCC#N)c4ccccc4)n2)cn3Cc2ccc(Cl)cc2)CC1 | 1b | replicon |  | <10 µM |
| C=CC1CC1(NC(=O)[C@@H]1C[C@@H](Oc2cc(-c3ccccc3)nc3cc(OC)ccc23)CN1C(=O)[C@@H](CC(=O)N1CCCC1)C(C)(C)C)C(=O)O |  | replicon |  | >10 µM |
| CC(C)(C)OC(=O)N1[C@H](CO)CC(F)(F)[C@@H]1n1ccc(=O)[nH]c1=O |  | replicon |  | >10 µM |
| CCOc1nc(N)nc2c1ncn2[C@@H]1O[C@@H]2COP(=O)(OC(C)C)O[C@H]2[C@@]1(C)F | 2a | replicon | 16 d | 0.73 µM |
| COc1cnc(O[C@@H]2C[C@H]3C(=O)N[C@]4(C(=O)NS(=O)(=O)C5CC5)C[C@H]4/C=C\CCCCC[C@@H](NC(=O)Nc4ccc5c(c4)B(O)OC5)C(=O)N3C2)c2cc(Cl)ccc12 | 1a | replicon |  | 0.06 µM |
| CC(C)(C)OC(=O)N1[C@H](CO)CC(F)(F)[C@@H]1n1cnc2c(N)ncnc21 |  | replicon |  | >10 µM |